We go through one substance from patent US20230375531A1.

Where only a bound is given, the exact number is not on record here.

Assay [1] deals with biotinylated monoFc-ACE2 receptor (human ACE2 residues 19-615 with N-terminal monoFc) (human) (UniProt Q9BYF1). The assay can be described thus: BLI association phase.
For assay [2] the target is unchanged.

In turn, “SARS-CoV-2 Spike receptor binding domain fused to cellulose binding domain (RBD-CBD) (from UniProt P0DTC2 332-532; Q06851 276-434)” returned a percent of RBD/ACE2 receptor complex formed within 5 min in assay [1] of more than 80%. The dissociation constant (Kd) (in general, the concentration at which binding is half-saturated) in assay [2] was found to be 12.7 nM.
